# Primary screen of a compound library

Source: ChEMBL document CHEMBL3988442, “University of Dundee, Small-Polar-MMV Screening Library” (2021).

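Phenotypic screen: M. tuberculosis growth, cholesterol and DPPC medium, 4 days; the read-out is not stated. Tested at 500 µM. Direction is inferred from retests: higher values go with more growth inhibition. Of about 18,000 compounds tested this way, about 900 (5%) reached 50% or more in at least one test.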

Values are the deposited “Percent Effect”, in %.
The record does not define 0% and 100%; most values in the screen are far below 50% and negative numbers occur (in some assays of this library far below -100).
Many other results are left out here, so strong results are more common than in the screen.

For NC1Cc2ccccc21 (stereo not shown) the result was -2.726%. Nc1nc(NCc2ccncc2)cc(-n2cccn2)n1 read -13.62%. For NC1CC(c2cc(NCCN3CCOCC3)ncn2)C1 (stereo not shown) the result was -3.845%. With Nc1cnn(Cc2ccccn2)c1 the screen gave 51.7%. Result for CN(C(=O)C(CN)c1ccccc1)c1cccc(F)c1 (stereo not shown) was 0.07145%. With COc1cc(C#N)cnc1C the screen gave -12.36%. CC(=O)c1cc(CN2CCOCC(CO)C2)n(C)c1 (stereo not shown) gave 3.986%.

For O=C(Nc1cc(F)cc(F)c1)c1ccncc1 the result was 1.783%. Result for Cc1ccnc(NC(=O)CC(C)C)c1 was -4.29%. For NCC1CCCN1CCc1ccccc1 (stereo not shown) the result was 85.02%. CNC(=O)CN(C)C(=O)c1cc2ccccc2cc1O read 11.48%. For CCS(=O)(=O)Nc1ccc(CN)cc1 the result was 4.759%. Cc1ccc(S(=O)(=O)NCCS(C)(=O)=O)cc1C read -3.766%. CN1CCc2ccc(NC(=O)N3CCCC3)cc2C1=O gave -11.65%.

CCN1Cc2ccccc2CC1C(N)=O (stereo not shown) gave 3.237%. CC(C)c1ccoc1C(=O)N(C)c1cc(C#N)ccn1 gave 50.76%. O=C(NCCCc1ccccc1)C1CNCCO1 (stereo not shown) read 2.675%. O=C(C1CCC1)N1CCn2c1nc1ccccc12 gave 19.74%. COCCN(C)CCNC(=O)c1cccc(Cl)c1 gave 10.91%. For NC(=O)NCC(=O)NCC1COc2ccccc2C1 (stereo not shown) the result was -13.54%. O=C(NCCCOC(F)F)NCc1cccnc1 read -15.47%.

CN(Cc1ccccc1Br)C(=O)c1nccnc1N gave 33.17%. CC(C)C[C@H](N)C(=O)NCCN(C)C gave -12.97%. For c1cc(NCC2CCCO2)ccn1 (stereo not shown) the result was 8.56%. O=C(NCCSCc1cccc(Cl)c1)C1CNCCO1 (stereo not shown) gave 73.2%. CN(Cc1cccs1)C(N)=O read -17.92%. For CC(C)c1ccc(C(N)CNS(C)(=O)=O)cc1 (stereo not shown) the result was 60.17%. Result for CCOc1ccc(Cn2cc(Br)ccc2=O)nc1 was 29.6%.

For CCOCC(=O)NCC1(O)CCCc2ccccc21 (stereo not shown) the result was 51.85%. For COCCCn1ccc(Nc2ncccc2C#N)n1 the result was 6.239%. CCN1CCC(CNC(=O)c2ccncc2F)C1 (stereo not shown) read 10.01%. CN1C(=O)[C@H]2CN(Cc3cccc(Br)c3)C[C@H]2C1=O read 23.09%. CSCc1cc(F)ccc1CNC(=O)[C@H]1CCC(=O)N1 read 9.953%. NC(=O)c1ccc(-c2nc(C3CCCC3)no2)o1 gave 71.63%. With Cc1ccc(NC(=O)CCCc2nc(C)no2)nc1 the screen gave 9.936%.

Result for O=C(CCc1ccncc1)N1CCCCC1 was 21.28%. COc1ccc(CCSc2nnc[nH]2)cc1 gave 77.17%. CC(C#N)NC(=O)c1sccc1OC(F)F (stereo not shown) gave -4.818%.

4 of the entries, repeated:

| structure | percent effect |
|---|---|
| `CC(C#N)NC(=O)c1sccc1OC(F)F` (stereo not shown) | -4.818 |
| `O=C(NCCCOC(F)F)NCc1cccnc1` | -15.47 |
| `CCS(=O)(=O)Nc1ccc(CN)cc1` | 4.759 |
| `NCC1CCCN1CCc1ccccc1` (stereo not shown) | 85.02 |